The data set is described as follows: soluble on expression in E. coli; label from the status in PepcDB or PDB records.

As for “MSKTASSRNSLSAQLRRAANTRIEVEGNLALSIANDLLLAYGQSPFNSEAECISFSPRFDGTPDDFRINYLKAEIMSKYDDFSLGIDTEAVAWEKFLAAEAECALTNARLYRPDYSEDFNFSLGESCIHMARRKIAKLIGDVPSVEGMLRHCRFSGGATTTNNRSYGHPSFKFALPQACTPRALKYVLALRASTHFDTRISDISPFNKAVTVPKNSKTDRCIAIEPGWNMFFQLGIGGILRDRLRCWGIDLNDQTINQRRAHEGSVTNNLATVDLSAASDSISLALCELLLPPGWFEVLMDLRSPKGRLPDGSVVTYEKISSMGNGYTFELESLIFASLARSVCEILDLDSSEVTVYGDDIILPSCAVPALREVFKYVGFTTNTKKTFSEGPFRESCGKHYYSGVDVTPFYIRHRIVSPADLILVLNNLYRWATIDGVWDPRAHSVYLKYRKLLPKQLQRNTIPDGYGDGALVGSVLINPFAKNRGWIRYVPVITDHTRDRERAELGSYLYDLFSRCLSESNDGLPLRGPSGCDSADLFAIDQLICRSNPTKISRSTGKFDIQYIACSSRVLAPYGVFQGTKVASLHEA”, the “soluble on expression in E. coli” value is given as “soluble”.

The values above are taken from the DeepSol protein solubility set.
